A mixed list of measured activities; the numbers were collected in NIAID ChemDB.

Shared fields: toxicity to cultured cells; measure: CC50

CCn: concentration that lowers growth or viability of the cells by n%.

compound | cell line | read by | value
O=C(Cc1nc(=O)n(O)c2ncccc12)NCc1ccccc1 | PM1 | - | 1.96 µM
CCOC(=O)c1ccc(OCCC2CCN(c3ccc(C)nn3)CC2)cc1 | H1-HELA | - | >100 µM
COc1cc(/C=C/c2ccc3c(c2)[C@H](c2cc(OC)cc(OC)c2)[C@@H](c2ccc(O)cc2)O3)cc(OC)c1 | MDCK | MTT | 118.1 µg/mL
Cc1cn([C@@H]2O[C@H](COC(c3ccccc3)(c3ccccc3)c3ccccc3)[C@H](O)[C@H]2N=[N+]=[N-])c(=O)[nH]c1=O | HL-60 | - | >1000 µM
COc1cc(/C=C/c2ccc3c(c2)[C@H](c2cc(O)cc(O)c2)[C@@H](c2ccc(O)cc2)O3)cc(OC)c1 | MDCK | MTT | 35.9 µg/mL
C[C@@H]1[C@H](O)c2c(c3c(c4c(-c5ccccc5)cc(=O)oc24)OC(C)(C)C=C3)O[C@@H]1C | HOG.R5 | - | 49.5 µM
Cc1cn([C@@H]2O[C@H](COC(c3ccccc3)(c3ccccc3)c3ccccc3)C[C@H]2F)c(=O)[nH]c1=O | HL-60 | - | >1000 µM
CCOC(=O)/C=C/[C@H](C[C@@H]1CCNC1=O)NC(=O)[C@H](Cc1ccc(F)cc1)NC(=O)[C@@H](NC(=O)c1cc(C)on1)C(C)C | H1-HELA | - | >10 µM
Cc1cc(C)n2nc(S(=O)(=O)Nc3ccccc3C(F)(F)F)nc2n1 | K562 (CRL-1573) | WST | >128 µg/mL
CNC[C@@H](Cc1ccccc1)NC[C@@H](Cc1ccc2ccccc2c1)NCC1(c2ccccc2)CC1 | KB cells | - | 1.43 µg/mL
CCCCCCCNc1ccc(C(=O)C2CC2c2ccc(OC)c(OC)c2)cc1 | C1008 (Vero cells) | - | 235 µg/mL
COc1ccc2c(c1)C[C@@H]1C[C@]1(C(=O)N1C[C@H]3CC[C@@H](C1)CN(S(=O)(=O)C(C)C)C3)Cn1c-2c(C2CCCCC2)c2ccc(C(=O)NS(=O)(=O)N(C)C)cc21 | HCV replicon cells | resazurin / fluorescence | 5 µM
Cc1cn2c(nc1=O)O[C@@H]1[C@H](F)[C@H]2O[C@@H]1COC(c1ccccc1)(c1ccccc1)c1ccccc1 | HL-60 | - | >1000 µM
CCOC(=O)CCCCCOc1cccc(CN(C(=O)c2ccc(-c3cccc(C#N)c3)cc2)C(C)C)c1 | RAJI | - | >20 µM
CC(C)c1nc(CN(C)C(=O)N[C@H](C(=O)N[C@@H](Cc2ccccc2)C[C@H](O)[C@H](Cc2ccccc2)NC(=O)OCc2cncs2)C(C)C)cs1 | EPG85-257P | - | 55 µM
CCCCCCCCCCCCCCCCNc1ccc(C(=O)C2CC2c2ccc(Cl)cc2)cc1 | C1008 (Vero cells) | - | 235 µg/mL
CCOC(=O)/C=C/[C@H](CCC(N)=O)NC(=O)[C@H](Cc1ccccc1)NC(=O)[C@H](CC(C)C)NC(=O)c1cc(C)on1 | H1-HELA | - | >100 µM
Cc1cn([C@@H]2O[C@H](CO)[C@@H](O)[C@@H]2F)c(=O)[nH]c1=O | HL-60 | - | >1000 µM
O=C(c1ccc(N2CCCC2)cc1)C1CC1c1ccc(Cl)cc1 | C1008 (Vero cells) | - | 235 µg/mL
CCOC(=O)CCCCOc1ccccc1C=O | HEK 293 | - | >20 µM
C[C@H]1O[C@@H](O[C@H]2CC[C@@]3(C)[C@@H](CC[C@]4(C)[C@@H]3C=C[C@]35OC[C@@]6(CCC(C)(C)C[C@H]63)[C@H](O)C[C@]54C)[C@]2(C)CO)[C@H](O)[C@@H](O[C@@H]2O[C@H](CO)[C@@H](O)[C@H](O)[C@H]2O)[C@H]1O | Huh7.5 | XTT | 23.38 µM
Nc1ncnc2c1ncn2C1C[C@H]2C[C@@H]1[C@H]1CSC[C@@H]21 | Huh | - | 119 µM
N#Cc1ncn(CCc2ccccc2)c1/N=c1\ssnc1Cl | K562 | - | 4 µM
Cc1cn([C@@H]2O[C@H](CO)[C@@H](F)[C@@H]2F)c(=O)nc1N | HL-60 | - | 123 µM
CCCCCCCC/C=C\CCCCCCCCNc1ccc(C(=O)C2CC2c2ccc(Cl)cc2)cc1 | C1008 (Vero cells) | - | 431 µg/mL
CC(C)(C)n1ncc(C#N)c1/N=c1\ssnc1Cl | K562 | - | 5 µM
CCOC(=O)CCCCCOc1cccc(CN(C(=O)c2ccc(-c3cccc(CC(=O)O)c3)cc2)C(C)C)c1 | RAJI | - | >20 µM
N#Cc1ncn(CCc2ccc(Cl)cc2Cl)c1/N=c1\ssnc1Cl | K562 | - | 8 µM
COc1ccc(-n2cc(Cn3nc(-c4ccccc4)c4c3CCN(C(=O)Nc3ccccc3)C4)nn2)cc1 | RAW 264.7 | MTT | 340 µM
COc1ccc(C[C@H](N)C(=O)N[C@H]2[C@@H](O)[C@H](n3cnc4c(N(C)C)ncnc43)O[C@@H]2CO)cc1 | K562 (CRL-1573) | WST | 0.28 µg/mL
Clc1ncnc2c1ncn2C1C[C@H]2C[C@@H]1c1cscc12 | Huh | - | >16 µM
O=S(=O)([O-])OC[C@@H]1C[C@H](O)[C@@H](OS(=O)(=O)[O-])[C@H](O[C@H]2[C@H](O)[C@@H](O)[C@H](O[C@@H]3OC[C@@H](O[C@H]4[C@@H](OS(=O)(=O)[O-])[C@@H](OS(=O)(=O)[O-])[C@H](O)O[C@@H]4CO)[C@H](O)[C@H]3O)O[C@@H]2CO)O1 | P4R5 | MTT | >100 µg/mL
Cc1ccccc1Cn1nnc(C#N)c1/N=c1\ssnc1Cl | K562 | - | 8 µM
CNC(=O)N1C[C@H]2COC[C@@H](C1)CN(C(=O)[C@]13C[C@H]1Cc1cc(OC)ccc1-c1c(C4CCCCC4)c4ccc(C(=O)NS(=O)(=O)C(C)C)cc4n1C3)C2 | HCV replicon cells | resazurin / fluorescence | >100 µM
Clc1ncnc2c1ncn2C1C[C@H]2C[C@@H]1[C@@H]1CSC[C@H]21 | Huh | - | 20 µM
O=C(O)c1cc(-c2ccco2)nc2ccccc12 | BJ | - | >20 µM
CCOC(=O)/C=C/[C@H](CCC(N)=O)NC(=O)[C@H](Cc1ccc(C)cc1)NC(=O)[C@@H](NC(=O)c1ccc[nH]1)C(C)(C)C | H1-HELA | - | >100 µM
CC1(C)C2CC=C3C(CC[C@@]4(C)C5C[C@](C)(C(=O)O)CC[C@]5(C)CC[C@]34C)[C@@]2(C)CCC1(O)O | A2780 | - | 20 µM
Cc1cc(C2CC2)n2nc(S(=O)(=O)Nc3c(Br)cccc3Br)nc2n1 | K562 (CRL-1573) | WST | >128 µg/mL
CCc1nc2cc3ccccc3cc2cc1C(=O)N[C@@H](C/C=C/C[C@H](NC(=O)c1cc2cc3ccccc3cc2nc1CC)C(=O)N1CCC[C@H]1C(=O)N[C@@H](Cc1ccccc1)C(=O)NCCCN)C(=O)N1CCC[C@H]1C(=O)N[C@@H](Cc1ccccc1)C(=O)NCCCN | HEK293T | WST | ≥60 µM
CCOC(=O)/C=C/[C@H](C[C@@H]1CCNC1=O)NC(=O)[C@H](Cc1ccc(F)cc1)OC(=O)[C@@H](NC(=O)c1cc(C)on1)C(C)C | H1-HELA | - | >10 µM
C/C=C(\C)C(=O)c1c(OC)c2c(c3c(C)cc(=O)oc13)OC(C)(C)C=C2 | HOG.R5 | - | 16.9 µM
Nc1ncnc2c1ncn2C1C[C@H]2C[C@@H]1[C@@H]1CSC[C@H]21 | Huh | - | >348 µM
CCCCCCCCCCCCNc1ccc(C(=O)C2CC2c2ccc(Cl)cc2)cc1 | C1008 (Vero cells) | - | 235 µg/mL
Nc1ncnc2c1ncn2[C@H]1CC[C@@H](CO)O1 | ATH8 | trypan blue | >5 µM
O=c1nc(NCc2ccc(-c3ccccn3)s2)c2cccnc2n1O | PM1 | - | >10 µM
N#Cc1cnn(CCc2ccccc2)c1/N=c1\ssnc1Cl | K562 | - | 3 µM
Cc1cn([C@@H]2O[C@H](COC(c3ccccc3)(c3ccccc3)c3ccccc3)C3OC32)c(=O)[nH]c1=O | HL-60 | - | >1000 µM
CCCCCCCCCCCCCCOC(=O)NC(CCC(=O)O)(CCC(=O)O)CCC(=O)O | Huh7-SG1a H77 | - | >42 µM
CCOC(=O)/C=C/[C@H](CCC(N)=O)NC(=O)[C@H](Cc1ccccc1)NC(=O)[C@H](CC(C)C)NC(=O)OCc1ccccc1 | H1-HELA | - | >320 µM
O=C(c1ccc(NCc2ccco2)cc1)C1CC1c1ccc(Cl)cc1 | C1008 (Vero cells) | - | 235 µg/mL

For reference, 7 entries again:

compound	cell line	read by	value
O=C(c1ccc(NCc2ccco2)cc1)C1CC1c1ccc(Cl)cc1	C1008 (Vero cells)	-	235 µg/mL
CCCCCCCNc1ccc(C(=O)C2CC2c2ccc(OC)c(OC)c2)cc1	C1008 (Vero cells)	-	235 µg/mL
N#Cc1ncn(CCc2ccccc2)c1/N=c1\ssnc1Cl	K562	-	4 µM
CC(C)(C)n1ncc(C#N)c1/N=c1\ssnc1Cl	K562	-	5 µM
CCOC(=O)/C=C/[C@H](CCC(N)=O)NC(=O)[C@H](Cc1ccccc1)NC(=O)[C@H](CC(C)C)NC(=O)OCc1ccccc1	H1-HELA	-	>320 µM
O=C(O)c1cc(-c2ccco2)nc2ccccc12	BJ	-	>20 µM
CCOC(=O)/C=C/[C@H](CCC(N)=O)NC(=O)[C@H](Cc1ccc(C)cc1)NC(=O)[C@@H](NC(=O)c1ccc[nH]1)C(C)(C)C	H1-HELA	-	>100 µM

An empty or dashed field is not shown. Lines come from different laboratories, so protocols vary.